A mixed list of measured activities; the numbers were collected in NIAID ChemDB.

All rows: enzyme or target tests; organism: HIV-1; target: Reverse transcriptase; endpoint: fold resistance

Blank or dashed fields: not listed here. Conditions beyond the fields shown may differ between rows. Fold resistance: result on the changed form divided by that on wild type. Two numbers with a dash give a range or band.

| SMILES | read by | mutations | strain | value |
|---|---|---|---|---|
| CCN1c2ncccc2NC(=O)c2cc(CCOc3ccc(-c4ccc(CC(=O)O)cc4)cc3C)cnc21 | nucleotide incorporation / radiometric | RT-K103N Y181C | IIIB | >1 |
| CCN1c2ncc(CCOc3ccc(C(=O)O)c4c3CCN(C(C)=O)C4)cc2C(=O)N(C)c2cccnc21 | nucleotide incorporation / radiometric | RT-Y188L | - | >10 |
| CCN1c2ncc(CCOc3ccc(-c4cc[n+]([O-])cc4)cc3)cc2C(=O)N(C)c2cccnc21 | nucleotide incorporation / radiometric | RT-K103N Y181C | IIIB | 1 |
| CCN1c2ncc(CCOc3ccc(C(=O)O)c4c3CCCC4)cc2C(=O)N(C)c2ccc(F)nc21 | nucleotide incorporation / radiometric | RT-V106A | - | >10 |
| CCc1cc(CCc2nc3ccccc3o2)c(=O)[nH]c1C | nucleotide incorporation | RT-K103N | - | 15.9 |
| O=c1cc(Cc2ccccc2)nc(SCCCCO)[nH]1 | - | RT-V106A | - | 1.57 |
| CCN1c2ncc(CCOc3ccc(-c4ccn(CC(=O)O)n4)cc3)cc2C(=O)N(C)c2cccnc21 | nucleotide incorporation / radiometric | RT-K103N Y181C | IIIB | >2 |
| CCN1c2ncc(CCOc3ccc(CCC(=O)O)c4ccccc34)cc2C(=O)N(C)c2ccc(F)nc21 | nucleotide incorporation / radiometric | RT-Y188L | - | >10 |
| CC(C)=CCOc1cc(NC(=S)c2ccsc2C)ccc1Cl | - | RT-K103N | - | 50 |
| CCN1c2ncc(CCOc3ccc(-c4ccccc4)cc3)cc2C(=O)N(C)c2cccnc21 | nucleotide incorporation / radiometric | RT-K103N Y181C | IIIB | >1 |
| COC(=O)NCCCCNc1nc(Cc2ccccc2)c(C)c(=O)[nH]1 | - | RT-V106A | - | >43.5 |
| CC(C)=CCOc1cc(NC(=S)c2ccoc2C)ccc1Cl | - | RT-L100I | - | 3.19 |
| CCN1c2ncc(CCOc3ccc(C(=O)O)c4c3CCN(C(=O)OC(C)(C)C)C4)cc2C(=O)N(C)c2cccnc21 | nucleotide incorporation / radiometric | RT-V106A | - | >10 |
| CCN1c2ncc(CCOc3ccc(-n4nc(C(=O)O)cc4C)cc3C)cc2C(=O)N(C)c2cccnc21 | nucleotide incorporation / radiometric | RT-K103N Y181C | IIIB | >2 |
| CC(C)=CCN1Cc2cccc3[nH]c(=S)n(c23)C[C@@H]1C | nucleotide incorporation | RT-Y181I | - | 262 |
| O=c1cc(Cc2ccccc2)nc(NCCCCO)[nH]1 | - | RT-Y181L | - | >2.44 |
| CCN1c2ncc(CCOc3ccc(CC(=O)O)c4ccccc34)cc2C(=O)Nc2c(C)cc(Cl)nc21 | nucleotide incorporation / radiometric | RT-Y188L | - | >10 |
| CCN1c2ncc(CCOc3ccc(-c4cccnc4C)cc3C)cc2C(=O)N(C)c2cccnc21 | nucleotide incorporation / radiometric | RT-K103N Y181C | IIIB | 1 |
| CCN1c2ncc(CCOc3ccc(CC(=O)NN)c4ccccc34)cc2C(=O)N(C)c2ccc(Cl)nc21 | nucleotide incorporation / radiometric | RT-K103N Y181C | - | 1 |
| CCN1c2ncc(CCOc3ccc(NC(=O)/C=C/C(=O)O)cc3C)cc2C(=O)N(C)c2cccnc21 | nucleotide incorporation / radiometric | RT-K103N Y181C | IIIB | >1 |
| CCN1c2ncc(CCOc3ccc(C(=O)O)c4c3CCN(C(=O)N(C)C)C4)cc2C(=O)N(C)c2cccnc21 | nucleotide incorporation / radiometric | RT-K103N Y181C | - | 1 |
| CCN1c2ncc(CCOc3ccc(-c4csc(N)n4)cc3C)cc2C(=O)N(C)c2cccnc21 | nucleotide incorporation / radiometric | RT-K103N Y181C | IIIB | 1 |
| CCN1c2nc(C(F)(F)F)ccc2NC(=O)c2cc(CCOc3cc[n+]([O-])c4ccccc34)cnc21 | nucleotide incorporation / radiometric | RT-K103N Y181C | - | 2.4 |
| CCN1c2ncc(CCOc3ccc(CC(=O)O)c4ccccc34)cc2C(=O)Nc2c(C)cc(F)nc21 | nucleotide incorporation / radiometric | RT-K103N Y181C | - | 1–10 |